Reference: PMC5618191, “The Natural Fungal Metabolite Beauvericin Exerts Anticancer Activity In Vivo: A Pre-Clinical Pilot Study” (Toxins, 2017)

Key:
[1] = tested on: CT-26-derived tumor allografts; experiment: CT-26 allograft mouse model; assay type: in vivo, BALB/c mice; conditions: 5 mg/kg bw/day i.p., complete study period
Protocol: For the allograft experiment, 4 × 10^5 CT-26 cells were resuspended in 50 µL RPMI medium and injected subcutaneously into the right flank of eight, 6–8 weeks old, male BALB/c mice that were obtained from Harlan Laboratories (San Pietro al Natisone, Italy). Likewise, in the xenograft experiment, 1 × 10^6 KB-3-1 cells in 50 µL RPMI medium were injected subcutaneously into the right flank of eight, 6–8 weeks old, male CB-17/IcrHanHsd-Prkdc severe combined immunodeficiency (SCID) mice. Of each group, four animals were randomly assigned to the control or to the treatment group. […] Effects of the treatment were assessed by daily recording of tumor size with a microcaliper and parameters indicating the animals’ overall health condition (e.g., body weight, fatigue, grooming, ragged coat, food and fluid consumption). Tumor volumes (mm^3) were calculated using the formula: (length × width^2)/2. […]
From each mouse from both the control (n = 4) and the treatment group (n = 4), tissue samples were formalin-fixed, paraffin-embedded and used to prepare serial 3 µm sections. […] Numbers of the three cell fractions were analyzed in a blinded setup in at least four images of H/E-stained tumor sections, taken under a 40 × objective microscope lens. […]

[2] = Beauvericin distribution by LC-MS/MS, allograft model; assay type: in vivo, BALB/c mice
[3] = Beauvericin distribution by LC-MS/MS, xenograft model; assay type: in vivo, CB-17/SCID mice
[4] = 5 mg/kg bw/day i.p., 9 days of treatment

In the case of beauvericin, the “Mean body weight of mice” value [1] is reported as “virtually unaltered”, the “Beauvericin level in feces” value [2, 4] is reported as 698.1 ± 257.2 µg/kg and the “Beauvericin level in kidney” value [2, 4] is reported as 312.8 ± 104.6 µg/kg. For the same substance, the “Beauvericin level in liver” value [2, 4] was 266.5 ± 91.1 µg/kg, the “Accumulation in kidney compared to serum” value ([2]; allograft model) was 8.8 fold and the “Accumulation in liver compared to serum” value ([2]; allograft model) was 7.5 fold. For the same substance, the “Accumulation in tumors compared to serum” value ([2]; allograft model) was 2.3 fold, the “Beauvericin level in colon” value [3, 4] was 217.2 ± 104.0 µg/kg and the “Beauvericin level in liver” value [3, 4] was 440.9 ± 165.9 µg/kg. For the same substance, the “Beauvericin level in serum” value [3, 4] was 55.7 ± 23.4 µg/kg, the “Accumulation in adipose tissue compared to serum” value ([3]; xenograft model) was 46.7 fold and the “Enrichment in feces compared to serum” value ([3]; xenograft model) was 16.4 fold. For the same substance, the “Enrichment in kidney compared to serum” value ([3]; xenograft model) was 5.5 fold and the “Enrichment in liver compared to serum” value ([3]; xenograft model) was 7.9 fold.
